Anti-infective test results gathered from many reports (values: NIAID ChemDB through PubChem).

Shared fields: tests in culture; agent: Adenovirus

a–b is a range or a potency band. ECn is the concentration giving n% inhibition of infection, replication or growth. Lines come from different laboratories, so protocols vary. An empty or dashed field is not shown.

structure	cell line	measure	strain	read by	result
Nc1ccn([C@H]2CC[C@@H](CO)O2)c(=O)n1	BCC-1/KMC	EC50	TYPE 8	cytopathic effect	10.2 µg/mL
Nc1ncnc2c1ncn2C[C@H](CO)OCP(=O)(O)O		EC50	TAK (TYPE 41)	cytopathic effect	0.2 µg/mL
NC(=S)c1cn([C@H]2C[C@H](O)[C@@H](CO)O2)c2ncnc(N)c12	HeLa	EC50	adenoid 75 (TYPE 5)	plaque count	1 µM
N#Cc1c(SCCCBr)nsc1-c1ccccc1	HEP-2	EC50	TYPE 2	plaque count	>25 µg/mL
Nc1nc2c(ncn2COCCO)c(=O)[nH]1	HEL	EC50	TYPE 2	PCR	>500 µM
Cc1cn(COC(CP(=O)(O)O)C(C)O)c(=O)[nH]c1=O	HEP-2	EC50	TYPE 2	cytopathic effect	>320 µg/mL
O=c1ccn([C@H]2C[C@H](F)[C@@H](CO)O2)c(=O)[nH]1	HEL	EC50	TYPE 2	PCR	>100 µM
O=c1[nH]c(=O)n([C@H]2C[C@H](O)[C@@H](CO)O2)cc1/C=C/Br	VERO	EC50	TYPE 3	plaque count	50–100 µM
O=c1cc(-c2ccc(O)c(O)c2)oc2cc(O)cc(O)c12	BCC-1/KMC	EC50	TYPE 3	cytopathic effect	>25 µg/mL
Nc1ccn(C[C@@H](CO)OCP(=O)(O)O)c(=O)n1	HEL	EC50	3 TYPES	cytopathic effect	3.4 µg/mL
N/C(=N/O)c1cn([C@@H]2O[C@H](CO)[C@@H](O)[C@@H]2O)c2ncnc(N)c12	HeLa	EC50	adenoid 75 (TYPE 5)	plaque count	20 µM
Nc1ncnc2c1ncn2[C@@H]1C[C@@H](O)[C@H](CO)O1	A549	EC50	TYPE 1		>100 µM
O=C(O)[C@H]1O[C@@H](Oc2cc3oc(-c4ccccc4)cc(=O)c3c(O)c2O)[C@H](O)[C@@H](O)[C@@H]1O	BCC-1/KMC	EC50	TYPE 11	cytopathic effect	>50 µg/mL
N#Cc1c(N2CCCCC2)nsc1-c1ccccc1	HEP-2	EC50	TYPE 2	plaque count	>25 µg/mL
Cc1cn(COC(CP(=O)(O)O)C(O)CO)c(=O)[nH]c1=O	HEP-2	EC50	TYPE 2	cytopathic effect	>320 µg/mL
N=C(N)c1cn([C@H]2C[C@H](O)[C@@H](CO)O2)c2ncnc(N)c12	HeLa	EC50	adenoid 75 (TYPE 5)	plaque count	6 µM
Nc1ncnc2c1ncn2C[C@@H](CO)OCP(=O)(O)O	HEL	EC50	TYPE 2	cytopathic effect	0.2 µg/mL
Nc1ncc2ncn(CCOCP(=O)(O)O)c2n1	HEL	EC50	3 TYPES	cytopathic effect	>125 µg/mL
Nc1nc(N)c2ncn(CCOCP(=O)(O)O)c2n1		MIC	TYPE 3		>100 µg/mL
Nc1ncnc2c1ncn2C[C@@H](CO)OCP(=O)(O)O	HEL	EC50	TYPE 2		1.38 µM
Nc1ccnc2c1ncn2[C@H]1C=C[C@@H](OCP(=O)(O)O)O1		EC90	adenoid 6 (TYPE 2)	virus yield	7 µg/mL
O=C(O)/C=C/c1ccc(O)cc1	BCC-1/KMC	EC50	TYPE 8	cytopathic effect	>200 µg/mL
NC(=O)c1c[se]c([C@@H]2O[C@H](CO)[C@@H](O)[C@H]2O)n1	HeLa	EC50	Type 2/adenoid 6	cytopathic effect	9 µg/mL
Cc1cc(=O)c2c(O)c3c(O)cc(O)c4c5c(O)cc(O)c6c(O)c7c(=O)cc(C)c8c1c2c(c34)c(c65)c78	HeLa	EC50	TYPE 2	cytopathic effect	>100 µg/mL
CSc1nsc(-c2ccccc2)c1C(N)=O	HEP-2	EC50	TYPE 2	plaque count	>250 µg/mL
Nc1ncnc2c1ncn2CCOCP(=O)(O)O	HEL	EC50	3 TYPES	cytopathic effect	>125 µg/mL
CCCSc1nsc(-c2ccccc2)c1C(=O)O	HEP-2	EC50	TYPE 2	plaque count	>500 µg/mL
OCC1=C[C@@H](O)[C@@H]2C=CO[C@@H](O[C@@H]3O[C@H](CO)[C@@H](O)[C@H](O)[C@H]3O)[C@H]12	BCC-1/KMC	EC50	TYPE 8	cytopathic effect	>200 µg/mL
Nc1ncnc2c1ncn2[C@@H]1C[C@@H](O)[C@H](CO)O1	A549	EC50	TYPE 1		>100 µM
O=c1c(O)c(-c2ccccc2)oc2cc(O)cc(O)c12	VERO	EC50	TYPE 2		>15 µg/mL
Nc1ncnc2c1ncn2CCOCP(=O)(O)O		MIC	TYPE 2		>100 µg/mL
Nc1cc(OC[C@H](CO)OCP(=O)(O)O)nc(N)n1	HEL	EC50	TYPE 2		7.5 µM
N=C(N)c1cn([C@@H]2O[C@H](CO)[C@@H](O)[C@@H]2O)c2ncnc(N)c12	HeLa	EC50	adenoid 75 (TYPE 5)	plaque count	>100 µM
CCOC(=O)CSc1nsc(-c2ccccc2)c1C#N	HEP-2	EC50	TYPE 2	plaque count	>200 µg/mL
COc1ccc(-c2cc(=O)c3c(O)cc(O)cc3o2)cc1	VERO	EC50	TYPE 2		>20 µg/mL
N#Cc1c(N2CCOCC2)nsc1-c1ccccc1	HEP-2	EC50	TYPE 2	plaque count	>1 µg/mL
Nc1ncnc2c1ncn2C[C@@H](CO)OCP(=O)(O)O	HEL	EC50	3 TYPES	cytopathic effect	0.33 µg/mL

A second listing of 4 rows from above:

structure,cell line,measure,strain,read by,result
Nc1ncnc2c1ncn2[C@@H]1C[C@@H](O)[C@H](CO)O1,A549,EC50,TYPE 1,,>100 µM
O=c1[nH]c(=O)n([C@H]2C[C@H](O)[C@@H](CO)O2)cc1/C=C/Br,VERO,EC50,TYPE 3,plaque count,50–100 µM
Nc1ccn([C@H]2CC[C@@H](CO)O2)c(=O)n1,BCC-1/KMC,EC50,TYPE 8,cytopathic effect,10.2 µg/mL
Nc1ccn(C[C@@H](CO)OCP(=O)(O)O)c(=O)n1,HEL,EC50,3 TYPES,cytopathic effect,3.4 µg/mL